Data as given in PubChem BioAssay AID624099 (ICCB-Longwood, 2012)
The deposit covers about 21,000 reagents; this is a random part of them. Over the whole deposit, 497 (2.4%) are marked active. 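Higher z means weaker E2 silencing; only reporter increases were scored, and knock-downs that hurt cell survival may mask genuine repressor factors.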 No sequences are given here.

Aim: 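Host factors E2 relies on to silence an HPV18 LCR reporter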 (primary screen)
Cells: human C33A cervical carcinoma cells (HPV-negative) stably expressing BPV1 E2 and an HPV18 LCR luciferase reporter
Knock-down reagent: siRNA pool against human genes, 40 nM
Duration: 72 h
Detection: 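HPV18 LCR reporter light per well, converted to plate-wise z-scores that exclude control wells, and averaged over triplicate plates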
Reading the numbers: mean z-score and z-score: higher = stronger reporter signal, weaker E2 silencing
Call rule: 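Mean z ≥ 2 together with z ≥ 2 in two or more of the three replicates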

| target gene | mean z-score | z-score, replicate A | z-score, replicate B | z-score, replicate C | call |
| --- | --- | --- | --- | --- | --- |
| PIH1D1 | 0.1 | -0.2 | 0.07 | 0.42 | inactive |
| CANT1 | -0.21 | -0.36 | -0.2 | -0.06 | inactive |
| EIF3LP3 | -1.76 | -1.9 | -1.97 | -1.42 | inactive |
| HSPA5 | -1.01 | -0.87 | -1.31 | -0.85 | inactive |
| SLC2A14 | -0.75 | -0.67 | -0.6 | -1 | inactive |
| DMRT1 | -0.88 | -0.55 | -0.81 | -1.27 | inactive |
| YIPF2 | -0.14 | -0.31 | -0.06 | -0.05 | inactive |
| TRIM45 | -0.19 | -0.05 | -0.37 | -0.13 | inactive |
| LOC391770 (retired record) | 0.44 | 0.1 | 0.32 | 0.9 | inactive |
| LRRC1 | -0.86 | -0.79 | -1.23 | -0.58 | inactive |
| FUT7 | 0.2 | 0.31 | 0.06 | 0.22 | inactive |
| LOC389239 (retired record) | 0.06 | 0.43 | -0.4 | 0.15 | inactive |
| THSD7A | -0.43 | -0.59 | -0.35 | -0.34 | inactive |
| IPMK | 0.81 | 0.49 | 0.94 | 0.99 | inactive |
| DCUN1D2 | 0.73 | 0.66 | 1.06 | 0.47 | inactive |
| ZNF791 | 0.18 | 0.02 | -0.01 | 0.52 | inactive |
| IFIT2 | 0.62 | 0.47 | 0.82 | 0.58 | inactive |
| PCDH19 | 0.28 | 0 | 0.42 | 0.42 | inactive |
| PCDHGB6 | -0.77 | -1.1 | -0.93 | -0.28 | inactive |
| SDR42E1 | -0.35 | -0.46 | -0.33 | -0.26 | inactive |
| EPG5 | -0.65 | -1.31 | -0.74 | 0.08 | inactive |
| RPS2P45 | -0.51 | -0.75 | -0.5 | -0.28 | inactive |
| HMGB1 | 0.38 | 0.68 | 0.35 | 0.11 | inactive |
| LOC343221 (retired record) | -1.16 | -1.37 | -0.91 | -1.2 | inactive |
| IRF3 | -0.75 | -0.79 | -0.7 | -0.75 | inactive |
| FUCA1 | -0.44 | -0.59 | -0.47 | -0.26 | inactive |
| LOC400523 (retired record) | -1.11 | -1.29 | -1 | -1.03 | inactive |
| SAC3D1 | 0.05 | 0.12 | 0.09 | -0.07 | inactive |
| CSRNP1 | -0.4 | -0.25 | -0.56 | -0.38 | inactive |
| LOC400669 (retired record) | 0.27 | -0.1 | 0.52 | 0.39 | inactive |
| EHHADH | -0.59 | -0.84 | -0.32 | -0.61 | inactive |
| UTP20 | -0.69 | -0.84 | -0.72 | -0.51 | inactive |
| LOC400985 (retired record) | 0.26 | 0.44 | 0.08 | 0.26 | inactive |
| NOVA1 | 1.67 | 1.83 | 1.5 | 1.67 | inactive |
| ERCC4 | -1.28 | -1.68 | -1.09 | -1.06 | inactive |
| ADIPOR1 | -1.13 | -1.33 | -0.79 | -1.26 | inactive |
| GSTT2 | -0.51 | -0.6 | -0.79 | -0.16 | inactive |
| H2AC17 | -0.02 | -0.21 | 0.32 | -0.16 | inactive |
| PPP1R13B-DT | 0.48 | 0.56 | 0.05 | 0.83 | inactive |
| LAMA1 | 0.33 | 0.4 | 0.16 | 0.42 | inactive |
| LIPE | -0.09 | -0.06 | -0.21 | 0.01 | inactive |
| SLC39A13 | 1.31 | 1.31 | 0.94 | 1.67 | inactive |
| PRKAA1 | -0.3 | -0.61 | -0.12 | -0.18 | inactive |
| LINC02551 | -1.31 | -1.08 | -1.36 | -1.49 | inactive |
| LOC728329 (retired record) | 0.08 | 0.18 | 0.13 | -0.09 | inactive |
| PCDHA6 | 1.73 | 1.65 | 1.43 | 2.12 | inactive |
| CHTF18 | -0.83 | -0.99 | -0.95 | -0.55 | inactive |
| GDF11 | -0.5 | -0.56 | -0.65 | -0.3 | inactive |
| MBTPS2 | -0.77 | -1 | -0.49 | -0.81 | inactive |
| CIITA | 0.13 | 0 | 0.37 | 0.02 | inactive |
| PAPSS2 | 0.89 | 0.44 | 0.85 | 1.39 | inactive |
| BTF3P13 | 1.41 | 1.33 | 1.36 | 1.53 | inactive |
| ZFP42 | 0.28 | 0.31 | 0.16 | 0.37 | inactive |
| SLC25A21 | -0.27 | -0.14 | -0.5 | -0.17 | inactive |
| AQP8 | -0.5 | -0.31 | -0.64 | -0.54 | inactive |
| ZSCAN5B | -0.87 | -0.71 | -0.84 | -1.07 | inactive |
| FGF5 | -1.08 | -1.2 | -0.96 | -1.08 | inactive |

Just “z-score, replicate C”, for 6 of the entries above:
CHTF18 = -0.55
GDF11 = -0.3
MBTPS2 = -0.81
CIITA = 0.02
PAPSS2 = 1.39
BTF3P13 = 1.53
